## PSTVd loop 6 mutant pool in Nicotiana benthamiana

Data from the supplement of Wu et al. 2024, doi:10.1371/journal.ppat.1012142.

PSTVd intermediate strain, loop 6: wild type UGACCGCGAG, pool pattern UNNNCGNNNG; upper and lower strand joined, each 5' to 3', the first 5 letters being the upper strand, closing pairs included.

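Three N. benthamiana plants were inoculated with the whole mutant pool. Samples came from the inoculated region at 5 days, the leaf margin at 10 and upper systemic leaves at 12.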

Numbers give reads per thousand; 0 = not seen among the reads, higher = more abundant. Each value is the mean of three plants. "Pool" is the share in the plasmid pool used as inoculum, on the same scale. The inoculated region was read from the minus strand, the other sites from the plus strand. For reference, wild type rose from 20.7 per thousand in the pool to 195, 198, 203 (inoculated region), 629, 591, 734 (leaf margin) and 942, 870, 868 (systemic leaves).

UAUCCGCUAG (pool 0.0784) read inoculated region 0.136; leaf margin 0; systemic leaves 0.
UAAUCGCUUG (pool 0.144) read inoculated region 0.107; leaf margin 0.00773; systemic leaves 0.
UGAACGGGGG (pool 0.0915) read inoculated region 0.666; leaf margin 0.0959; systemic leaves 0.0262.
UGACCGUUUG (pool 0.641) read inoculated region 0.328; leaf margin 0.508; systemic leaves 0.138.
UUAACGAAAG (pool 0.222) read inoculated region 0.652; leaf margin 0.0830; systemic leaves 0.
UACACGCACG (pool 0.0654) read inoculated region 0.594; leaf margin 0.0667; systemic leaves 0.
UUGUCGCAAG (pool 0.144) read inoculated region 0.174; leaf margin 0; systemic leaves 0.
UAUGCGGACG (pool 0.261) read inoculated region 0.101; leaf margin 0; systemic leaves 0.
UGGGCGAUGG (pool 0.235) read inoculated region 0.0480; leaf margin 0; systemic leaves 0.
UGAGCGACGG (pool 0.235) read inoculated region 0.126; leaf margin 0; systemic leaves 0.
UCGUCGUACG (pool 0.275) read inoculated region 0.161; leaf margin 0.0841; systemic leaves 0.
UUGUCGGCGG (pool 0.235) read inoculated region 0.0963; leaf margin 0; systemic leaves 0.00684.
UUUCCGUGGG (pool 0.209) read inoculated region 0.113; leaf margin 0.0479; systemic leaves 0.
UACCCGAGGG (pool 0.222) read inoculated region 0.132; leaf margin 0; systemic leaves 0.
UACACGAGCG (pool 0.157) read inoculated region 0.0657; leaf margin 0.00920; systemic leaves 0.
UUUUCGUAAG (pool 0.118) read inoculated region 0.0776; leaf margin 0; systemic leaves 0.
UAUCCGGUUG (pool 0.288) read inoculated region 0.0710; leaf margin 0.00773; systemic leaves 0.00684.
UACUCGUAAG (pool 0.222) read inoculated region 0.0827; leaf margin 0; systemic leaves 0.
UACCCGGGCG (pool 0.118) read inoculated region 0.101; leaf margin 0; systemic leaves 0.
UGCGCGGGUG (pool 0.222) read inoculated region 0.0886; leaf margin 0.00773; systemic leaves 0.

Extract of 3 entries:

sequence,pool,inoculated region,leaf margin,systemic leaves
UACUCGUAAG,0.222,0.0827,0,0
UCGUCGUACG,0.275,0.161,0.0841,0
UUAACGAAAG,0.222,0.652,0.0830,0

Samples held 36,220 to 57,551 reads, so the smallest values rest on one or two reads. The authors trace changes outside the varied positions to PCR and sequencing errors or to mutation in the plant; presence does not show that a variant is infectious alone.